# Patent US9669001B2, “Antimicrobial composition” (CONVATEC TECHNOLOGIES INC., priority 2008, dated 2017)
# “And” between values parts separate entries of the source, which are not always exact repeats. Identical values can stand only once.
# Test system: P. aeruginosa biofilms
# Test: Uptake of photo-catalyst by CDFF biofilms measured by colorimetric spectroscopy (SpectroEye)
# Type: cell-based
# Conditions: 10 minutes, listed as RB
structure (smiles),measurement,setting,value
"O=C1OC2(c3cc(I)c(O)c(I)c3Oc3c2cc(I)c(O)c3I)c2c(Cl)c(Cl)c(Cl)c(Cl)c21 [Rose Bengal, 4,5,6,7-Tetrachloro-3′,6′-dihydroxy-2′,4′,5′,7′-tetriodo-3H-spiro[isobenzofuran-1,9′-xanthen]-3-one]",RB contained in biofilm,"biofilm immersed in 125 μM RB in saline, from standard curve, one value per biofilm sample",136.48 µM and 120.85 µM and 111.10 µM and 134.99 µM and 123.95 µM and 120.17 µM
same,Mean uptake,"mean of 6 biofilm samples, 125 μM RB in saline",125 µM and 124.6 ± 9.6 µM
